A mixed list of measured activities; the numbers were collected in NIAID ChemDB.

Common to all: tests on isolated targets; organism: HIV-1; protein: Protease

An empty or dashed field is not shown. ICn: concentration for n% inhibition. Neighbouring rows are from separate reports.

structure,measure,method,strain,setting,changes,result
COc1ccccc1CNC(=O)[C@H]1N(C(=O)[C@@H](O)[C@H](Cc2ccccc2)NC(=O)c2cccc(O)c2C)CSC1(C)C,IC50,HPLC,,,,<0.05 µM
Cc1cccc(C)c1OCC(=O)N[C@@H](Cc1ccccc1)[C@H](O)CN1CC[C@@H](Sc2ccncc2)C[C@H]1C(=O)NC(C)(C)C,Ki,fluorescence,,,PR-I84V,0.000077 µM
CCCC1(CCC)CC(O)=C(C(CC)c2cccc(NS(=O)(=O)c3ccc(C#N)cn3)c2)C(=O)O1,Ki,,,,,0.0001 µM
CC(C)CC(NC(=O)OCc1ccccc1)C(=O)N[C@@H](Cc1ccccc1)C(=O)C(F)(F)CCc1ccccc1,IC50,,,,,0.17 µM
Cc1ccccc1CNC(=O)[C@H]1N(C(=O)[C@@H](O)[C@H](Cc2ccccc2)NC(=O)c2ccc(F)c(O)c2C)CSC1(C)C,IC50,HPLC,,,,<0.05 µg/mL
CC1(C)S[C@H]([C@H](NC(=O)Cc2ccccc2)C(=O)NCc2ccccc2)N[C@H]1C(=O)NCCNC(=O)[C@@H]1N[C@@H]([C@H](NC(=O)Cc2ccccc2)C(=O)NCc2ccccc2)SC1(C)C,IC50,HPLC,RF,,,0.0009 µM
O=C1c2cccc(O)c2C(=O)c2cccc(O)c21,IC50,fluorescence,,,,78 µM
Cc1ccc(F)cc1CNC(=O)[C@H]1N(C(=O)[C@@H](O)[C@H](Cc2ccccc2)NC(=O)c2cccc(O)c2C)CSC1(C)C,IC50,HPLC,,,,<0.05 µg/mL
O[C@@H]1[C@@H](O)[C@@H](Cc2ccccc2)N(Cc2ccccc2)C(=NOCc2ccccc2)N(Cc2ccccc2)[C@@H]1Cc1ccccc1,Ki,,,,,3 µM
O=C(N[C@@H](Cc1ccccc1)[C@H](O)CNC[C@@H](O)[C@H](Cc1ccccc1)NC(=O)c1ccccc1)c1ccccc1,IC50,HPLC,,pH 5.5,,>10 µM
COc1ccc(C[C@H](NC(=O)c2ccc(F)c(O)c2C)[C@H](O)C(=O)N2CSC(C)(C)[C@H]2C(=O)NCc2ccccc2C)cc1,IC50,HPLC,,,,<0.05 µg/mL
CCC(C1=C(O)CC(CCC2CC2)(CCC2CC2)OC1=O)c1cccc(NS(=O)(=O)c2ccc(C#N)cn2)c1,Ki,,,,,0.00001 µM
CC(C)(C)[C@H](NC(=O)OCc1ccccc1)C(=O)N[C@@H](Cc1ccccc1)C(=O)C(F)(F)CCc1ccccc1,IC50,,,,,0.0027 µM
CC1(C)S[C@H]([C@H](NC(=O)Cc2ccccc2)C(=O)NCc2ccccc2)N[C@H]1C(=O)N[C@H](Cc1ccccc1)[C@H](O)CC(=O)NCc1ccccc1,IC50,HPLC,RF,,,0.0046 µM
CC(C)[C@H](NC(=O)[C@@H](NC(=O)C1CCCC1P(=O)(O)C(Cc1ccccc1)NC(=O)c1ccccc1)C(C)C)C(N)=O,Ki,,,pH 4.5,,0.45 µM
CC(C)CC(SC1CCCC1)c1c(O)cc(-c2ccccc2)oc1=O,IC50,,,,,0.055 µM
CC(C)(C)OC(=O)N[C@@H](Cc1ccccc1)[C@H](O)CNC[C@@H](O)[C@H](Cc1ccccc1)NC(=O)[C@@H](NC(=O)OCc1ccccc1)c1ccccc1,IC50,HPLC,,pH 5.5,,<10 µM
CC(C)[C@H](NC(=O)[C@@H](NC(=O)C1CCCC1P(=O)(O)C(Cc1ccccc1)NC(=O)OCc1ccccc1)C(C)C)C(N)=O,Ki,,,pH 6.5,,2.4 µM
CCCCCC1(c2ccccc2)CC(O)=C(SCCc2ccccc2)C(=O)O1,IC50,,,,,0.084 µM
Nc1cccc(CN2C(=O)N(Cc3cccc(N)c3)[C@H](Cc3ccccc3)[C@H](O)[C@@H](O)[C@H]2Cc2ccccc2)c1,Ki,HPLC,,,,0.00023 µM
Nc1cc(S(=O)(=O)O)c(O)c2c1C(=O)c1c(O)c(S(=O)(=O)O)cc(N)c1C2=O,IC50,fluorescence,,,,>100 µM
O=C1C[C@@H](c2ccccc2)Oc2cc(O)cc(O)c21,IC50,HPLC,,,,>100 µg/mL
Cc1ccc(C[C@H](NC(=O)c2cccc(O)c2C)[C@H](O)C(=O)N2CSC(C)(C)[C@H]2C(=O)NCc2ccccc2C)cc1,IC50,HPLC,,,,<0.05 µg/mL
CCCC1(CCc2ccccc2)CC(O)=C(C(c2cccc(NS(=O)(=O)c3ccccn3)c2)C(C)(C)C)C(=O)O1,Ki,,,,,0.00009 µM
Nc1c(N=Nc2ccc(-c3ccc(N=Nc4cc(S(=O)(=O)O)c5ccccc5c4N)cc3)cc2)cc(S(=O)(=O)O)c2ccccc12,IC50,,,,,0.78 µM
O=C1c2ccccc2C(=O)c2c(Nc3ccc(S(=O)(=O)[O-])cc3)cc(Nc3ccc(S(=O)(=O)[O-])cc3)cc21.[Na+].[Na+],IC50,fluorescence,,,,3 µM
CC(C)[C@H](N)C(=O)N[C@@H](Cc1ccccc1)[C@H](O)CNC[C@@H](O)[C@H](Cc1ccccc1)NC(=O)OC(C)(C)C,IC50,HPLC,,pH 5.5,,~10 µM
O=c1oc(-c2ccccc2)cc(O)c1Sc1ccccc1,Ki,,,,,~1 µM
Cc1cccc(C)c1OCC(=O)N[C@@H](Cc1ccccc1)[C@H](O)C(=O)N1CSC(C)(C)[C@H]1C(=O)NCc1cccnc1,IC50,HPLC,,,,<0.05 µM
COC(=O)NC(C(=O)N[C@@H](Cc1ccccc1)[C@H](O)CNC[C@@H](O)[C@H](Cc1ccccc1)NC(=O)OC(C)(C)C)C(C)(C)C,IC50,HPLC,,pH 5.5,,>10 µM
Cc1cc(O)c2c(c1)C(=O)c1cc(O)cc(O)c1C2=O,IC50,fluorescence,,,,210 µM
CC[C@H](C)[C@H](NC(=O)[C@H](Cc1ccccc1)NC[C@@H](O)[C@H](Cc1ccccc1)NC(=O)[C@@H](NC(=O)[C@H](CC(C)C)NC(C)=O)C(C)C)C(=O)N[C@H](C(N)=O)C(C)C,IC50,fluorescence,,,,0.005 µM
COc1cc(O)cc2c1C(=O)C[C@@H](c1ccccc1)O2,IC50,HPLC,,,,>100 µg/mL
CCC(c1ccccc1)c1c(O)c2ccccc2oc1=O,Ki,,,,,1 µM
CC(C)[C@H](NC(=O)[C@H](Cc1ccccc1)NC(=O)OCc1ccccc1)C(=O)N[C@@H](Cc1ccccc1)[C@H](O)CNC[C@@H](O)[C@H](Cc1ccccc1)NC(=O)OC(C)(C)C,IC50,HPLC,,pH 5.5,,<10 µM
COC(=O)c1cccc(CNC(=O)[C@H]2N(C(=O)[C@@H](O)[C@H](Cc3ccccc3)NC(=O)COc3c(C)cccc3C)CSC2(C)C)c1,IC50,HPLC,,,,>0.05 µM
CC(C)[C@@H]1NC(=O)CCCCCOc2ccc(cc2)C[C@@H]([C@H](O)CN2CCCC[C@H]2C(=O)NC(C)(C)C)NC1=O,IC50,fluorescence,,,,0.085 µM
COCCOc1ccc(C[C@H](NC(=O)OC(C)(C)CO)[C@H](O)CNC[C@@H](O)[C@H](Cc2ccccc2)NC(=O)OC(C)(C)C)cc1,IC50,HPLC,,pH 5.5,,<10 µM
CC[C@H](C)C(NC(=O)[C@@H]1CCCN1C[C@H](O)[C@@H]1Cc2ccc(cc2)OCC(=O)NCC(=O)N[C@@H](CC(N)=O)C(=O)N1)C(=O)N[C@H](C(N)=O)C(C)C,IC50,fluorescence,,,,0.037 µM
Cc1ccccc1CNC(=O)[C@H]1N(C(=O)[C@@H](O)[C@H](Cc2ccccc2)NC(=O)c2cccc(N)c2Cl)CSC1(C)C,IC50,HPLC,,,,<0.05 µg/mL
O=C1c2ccc(O)cc2C(=O)c2ccc(O)cc21,IC50,fluorescence,,,,18 µM
O=C1N(Cc2ccccc2)C[C@@H](O)[C@@H](Cc2ccccc2)N1Cc1ccccc1,Ki,HPLC,RF,,,2.5 µM
COC(=O)N[C@H](C(=O)NCCCC[C@@H](CO)N(CC(C)C)S(=O)(=O)c1ccc(N)cc1)C(c1ccccc1)c1ccccc1,Ki,HPLC,,,,0.00004 µM
CC(C)[C@H](NC(=O)[C@@H](NC(=O)C1CCCC1P(=O)(O)C(NC(=O)OCc1ccccc1)c1ccccc1)C(C)C)C(N)=O,Ki,,,pH 6.5,,>100 µM
CC[C@H](C)[C@H](NC(=O)[C@@H]1CCCN1C[C@@H](O)[C@H](Cc1ccccc1)NC(=O)[C@H](CC(N)=O)NC(=O)[C@H](CC(C)C)NC(=O)[C@H](CO)NC(C)=O)C(=O)N[C@H](C(=O)OC)C(C)C,IC50,fluorescence,,,,0.044 µM
Cc1ccccc1CNC(=O)[C@H]1N(C(=O)[C@@H](O)[C@H](Cc2ccc3c(c2)OCO3)NC(=O)c2cccc(N)c2Cl)CSC1(C)C,IC50,HPLC,,,,<0.05 µg/mL
CC[C@H](C)[C@@H]1NC(=O)[C@@H](NC[C@@H](O)[C@H](Cc2ccccc2)NC(=O)[C@@H](NC(=O)[C@H](CC(C)C)NC(C)=O)C(C)C)Cc2ccc(cc2)OCCCNC1=O,IC50,fluorescence,,,,0.002 µM
O=C1c2ccccc2C(=O)c2c1ccc(O)c2O,IC50,fluorescence,,,,12 µM

3 of the rows above, restated:

structure | measure | method | strain | setting | changes | result
Cc1cccc(C)c1OCC(=O)N[C@@H](Cc1ccccc1)[C@H](O)CN1CC[C@@H](Sc2ccncc2)C[C@H]1C(=O)NC(C)(C)C | Ki | fluorescence |  |  | PR-I84V | 0.000077 µM
CCC(c1ccccc1)c1c(O)c2ccccc2oc1=O | Ki |  |  |  |  | 1 µM
O=C(N[C@@H](Cc1ccccc1)[C@H](O)CNC[C@@H](O)[C@H](Cc1ccccc1)NC(=O)c1ccccc1)c1ccccc1 | IC50 | HPLC |  | pH 5.5 |  | >10 µM